The source of these data is patent US20150210738.

For at least one entry, the source does not settle the construct or the ends of the probe.

Holding throughout (experiment): FP
The subject of data set [1] is AVP-pVIc complex. The settings on record: CITED McGrath 2001; pH 7.5; 6 bp site; purified recombinant protein.
For data set [2], the target named is AVP (adenovirus proteinase) (UniProt P03252). The note with it: CITED McGrath 2001; purified recombinant protein; protein details: Cy3B at Cys199 in sliding assays.
Data set [3] concerns the target pVIc (C-terminal peptide of pVI) (Human adenovirus 2) (UniProt P03274). The note with it: CITED McGrath 2001 among footnotes; fluorescein-DNA, 20 mM Tris pH 8, 0.025% DDM; synthetic protein.

For orientation: Kd means a measure of binding affinity in units of concentration. For “GATTGCATGATTAGAGTGTGCTGGATGTGATAGTGA (double strand) [36-mer dsDNA]”, the Kd in data set [1] is 4.65 nM.

Regarding “GACGACTAGGAT (double strand) [12-mer dsDNA]”, the Kd in data set [2] is 63.1 nM; in data set [3], 693 nM.
